Pooled drug test results. Numbers come from NIAID ChemDB, via PubChem.

Shared fields: tests in culture

An empty or dashed field is not shown.

structure	agent	strain	method	conditions	read-out	value
O=[N+]([O-])c1cc(C[Se]c2nnnn2Cc2ccccc2)cc([N+](=O)[O-])c1	Candida tropicalis	156	broth dilution	48 h	EC80	>500 µM
CO[C@H]1C[C@H](O[C@H]2[C@@H](OC)C[C@H](O[C@H]3[C@@H](OC)C[C@H](O[C@H]4CC[C@@]5(C)C(=CC[C@H]6C7=CC(=O)[C@@H]8[C@@H](C)OC(=O)[C@]78CC[C@@H]65)C4)O[C@@H]3C)O[C@@H]2C)O[C@H](C)[C@H]1O	Candida guilliermondii		broth dilution / turbidity		EC50	>100 µg/mL
O=C(O)c1cccc(-n2nnnc2SCc2cc([N+](=O)[O-])cc([N+](=O)[O-])c2)c1	Candida krusei	E28	broth dilution	48 h	EC80	>500 µM
CCOC(=O)C1C(c2ccc(OC)cc2)CC(c2ccccc2)=CC12NCCN2	Candida neoformans				MIC	25 µg/mL
C[C@@H](c1ncncc1F)[C@](O)(Cn1cncn1)c1ccc(F)cc1F	Candida krusei	17 isolates			MIC50	0.5 µg/mL
O=[N+]([O-])c1cc(CSc2nnnn2Cc2ccccc2)cc([N+](=O)[O-])c1	Candida tropicalis	156	broth dilution	24 h	EC80	>500 µM
COC1CN(c2c(F)cn3c(=O)c(C(=O)O)cc(C4CC4)c3c2C)CC1N.Cl	Candida albicans	CCH442			MIC	>100 µg/mL
COc1ccc2c(Cc3ccc(C(C)C)cc3)c3[n+](cc2c1OC(C)(C)C)CCc1cc2c(cc1-3)OCO2	Candida lusitaniae	ATCC 42720	broth dilution		MIC	8 µg/mL
CN(C/C=C/C#CC(C)(C)C)Cc1cccc2ccccc12	Candida glabrata		broth dilution	clinical isolate	MIC80	3.44 µM
CO[C@H]1C[C@H](O[C@H]2CC[C@@]3(C)C(=CC[C@H]4C5=CC(=O)[C@@H]6[C@@H](C)OC(=O)[C@]56CC[C@@H]43)C2)O[C@H](C)[C@H]1O[C@H]1C[C@H](OC)[C@H](O[C@@H]2C[C@@H](OC)[C@@H](O[C@@H]3O[C@H](CO)[C@@H](O)[C@H](O)[C@H]3O)[C@H](C)O2)[C@@H](C)O1	Candida guilliermondii		broth dilution / turbidity		EC50	100 µg/mL
Cc1c(N2CCC(F)C2)c(F)cn2c(=O)c(C(=O)O)cc(C3CC3)c12	Candida albicans	CCH442			MIC	>100 µg/mL
Clc1ccc(COC(Cn2ccnc2)c2ccc(Cl)cc2Cl)c(Cl)c1	Candida tropicalis	19 isolates			MIC50	4 µg/mL
Cc1c(N2CCC[C@@H](N)C2)c(F)cn2c(=O)c(C(=O)O)cc(C3CC3)c12	Candida albicans	CCH442			MIC	>100 µg/mL
CCOC(=O)C1C(c2ccc(C)cc2)CC(c2ccccc2)=CC12NCCN2	Candida spp.	Strains 6 and 6			MIC	25 µg/mL
CCC(C)n1ncn(-c2ccc(N3CCN(c4ccc(OC[C@H]5CO[C@](Cn6cncn6)(c6ccc(Cl)cc6Cl)O5)cc4)CC3)cc2)c1=O	Candida tropicalis	54 isolates			MIC50	0.25 µg/mL
Cc1ccc(C(C)C)cc1	Candida dubliniensis		broth dilution		MIC	22600 µg/mL
CO[C@H]1C[C@H](O[C@H]2CC[C@@]3(C)C(=CC[C@H]4C5=CC(=O)[C@@H]6[C@@H](C)OC(=O)[C@]56CC[C@@H]43)C2)O[C@H](C)[C@H]1O[C@H]1C[C@H](OC)[C@H](O[C@H]2C[C@H](OC)[C@H](O[C@@H]3C[C@@H](OC)[C@@H](O)[C@H](C)O3)[C@@H](C)O2)[C@@H](C)O1	Candida guilliermondii		broth dilution / turbidity		EC50	100 µg/mL
COc1c(CC=C(C)C)c(O)cc2occ(-c3ccc4c(c3)OCO4)c(=O)c12	Candida guilliermondii	Clinical isolate	broth dilution		MIC	25 µg/mL
O=[N+]([O-])c1cc(C[Se]c2nnnn2C2CCCCC2)cc([N+](=O)[O-])c1	Candida krusei	E28	broth dilution	24 h	EC80	>500 µM
O=C(OC1Cc2c(O)cc(O)cc2OC1c1cc(O)c(O)c(O)c1)c1cc(O)c(O)c(O)c1	Candida tropicalis	Clinical isolate 4	broth dilution		MIC50	>128 µg/mL
COc1cc(C[C@H](C)[C@H](C)Cc2ccc(O)c(O)c2)ccc1O	Candida parapsilosis	CCC 124-2000	broth dilution		MIC100	125 µg/mL
CO[C@H]1C[C@H](O[C@H]2CC[C@@]3(C)C(=CC[C@@H]4[C@@H]3CC[C@]35C(=O)O[C@H](C)[C@H]3C(=O)C[C@]45O)C2)O[C@H](C)[C@H]1O[C@H]1C[C@H](OC)[C@H](O[C@@H]2C[C@@H](OC)[C@@H](O[C@@H]3O[C@H](CO)[C@@H](O)[C@H](O)[C@H]3O)[C@H](C)O2)[C@@H](C)O1	Candida guilliermondii		broth dilution / turbidity		EC50	25 µg/mL
C[C@H]1[C@H](O)[C@@H](C)/C=C/C=C/C=C/C=C/C=C/C=C/C=C/[C@H](O[C@@H]2O[C@H](C)[C@@H](O)[C@H](N)[C@@H]2O)C[C@@H]2O[C@](O)(C[C@@H](O)C[C@@H](O)CC[C@H](O)[C@@H](O)C[C@@H](O)CC(=O)O[C@H]1C)C[C@H](O)[C@H]2C(=O)O	Candida dubliniensis	CBS 7987	broth dilution		MIC	0.002 µg/mL
CCCCCCCCC[C@@H](O)[C@H](C)N	Candida spp.	MTCC 1962			MIC	9.9 µM
C=CCc1ccc(O)c(-c2ccc(O)c(CC=C)c2)c1	Candida albicans	TW 07239	broth dilution		MIC	64 µg/mL
O=[N+]([O-])c1cc(CSc2nnnn2-c2ccc(Cl)c(Cl)c2)cc([N+](=O)[O-])c1	Candida tropicalis	156	broth dilution	24 h	EC80	>125 µM
C/C=C/Cc1ccc(OC)cc1	Candida dubliniensis		broth dilution		MIC	1150 µg/mL
C[C@@H](c1ncncc1F)[C@](O)(Cn1cncn1)c1ccc(F)cc1F	Candida parapsilosis	52 clinical isolates	broth dilution		MIC50	≤0.031 µg/mL
CSCC[C@H](N)[C@@H]1CCN(c2c(F)cn3c(=O)c(C(=O)O)cc(C4CC4)c3c2C)C1	Candida albicans	CCH442			MIC	>100 µg/mL
Clc1ccc(C(Cn2ccnc2)OCc2c(Cl)cccc2Cl)c(Cl)c1	Candida tropicalis	19 isolates			MIC50	0.5 µg/mL
c1ccc([Se][Se]c2ccccc2)cc1	Candida dubliniensis	CBS 7987	broth dilution		MIC	8 µg/mL
CO[C@H]1C[C@H](O[C@H]2CC[C@@]3(C)C(=CC[C@@H]4[C@@H]3CC[C@]35C(=O)O[C@H](C)[C@H]3C(=O)C[C@]45O)C2)O[C@H](C)[C@H]1O	Candida guilliermondii		broth dilution / turbidity		EC50	>100 µg/mL
COc1ccc2c(Cc3ccc(C(C)C)cc3)c3[n+](cc2c1OCc1cc(F)c(F)c(F)c1)CCc1cc2c(cc1-3)OCO2	Candida lusitaniae	ATCC 42720	broth dilution		MIC	8 µg/mL
CCOC(=O)C1C(c2ccccc2)CC(c2ccccc2)=CC12NCCN2	Candida spp.	Strains 6 and 6			MIC	200 µg/mL
C[C@@H]1[C@H](O)[C@@H](C)/C=C/C=C/CC/C=C/C=C/C=C/C=C/C(O[C@H]2O[C@H](C)[C@@H](O)[C@H](N)[C@@H]2O)CC2O[C@](O)(CC(O)C(O)CCC(O)CC(O)CC(O)CC(=O)O[C@H]1C)CC(O)C2C(=O)O	Candida tropicalis	ATCC 40042	broth dilution		MFC100	64 µg/mL
COc1cc(C)ccc1O	Candida dubliniensis		broth dilution		MIC	670 µg/mL
CCOC(=O)C1C(c2ccc(C)cc2)CC(c2ccc(Cl)cc2)=CC12NCCN2	Candida neoformans				MIC	6.25 µg/mL
COc1ccc(C(OC)C(O)c2cc(OC)c(OC)c(OC)c2)cc1	Candida guilliermondii	Clinical isolate	broth dilution		MIC	50 µg/mL
C[C@@H](c1nc(-c2ccc(C#N)cc2)cs1)[C@](O)(Cn1cnnc1)c1ccc(F)cc1F	Candida albicans	Isogenic isolate 13 Erg11 (4-5X) R467K			MIC	0.03 µg/mL
CC(=O)N1CCN(c2ccc(OC[C@H]3CO[C@](Cn4ccnc4)(c4ccc(Cl)cc4Cl)O3)cc2)CC1	Candida guilliermondii	24 clinical isolates	broth dilution		MIC90	0.062 µg/mL
COc1cc(C=O)ccc1O	Candida dubliniensis		broth dilution		MIC	130 µg/mL
Clc1ccc(CSC(Cn2ccnc2)c2ccc(Cl)cc2Cl)cc1	Candida tropicalis	19 isolates			MIC90	4 µg/mL
Cc1cccc(O)c1	Candida dubliniensis		broth dilution		MIC	210 µg/mL
Clc1ccc(CCC(Cn2ccnc2)Sc2c(Cl)cccc2Cl)cc1	Candida tropicalis	19 isolates			MIC50	0.12 µg/mL
COc1ccc2c(Cc3ccc(C(C)C)cc3)c3[n+](cc2c1OCCCO)CCc1cc2c(cc1-3)OCO2	Candida lusitaniae	ATCC 42720	broth dilution		MIC	4 µg/mL
C/C=C/c1ccc(O)c(OC)c1	Candida dubliniensis		broth dilution		MIC	110 µg/mL

3 of the rows above, restated:

CCOC(=O)C1C(c2ccccc2)CC(c2ccccc2)=CC12NCCN2 ; agent: Candida spp. ; strain: Strains 6 and 6 ; read-out: MIC ; value: 200 µg/mL
CO[C@H]1C[C@H](O[C@H]2CC[C@@]3(C)C(=CC[C@H]4C5=CC(=O)[C@@H]6[C@@H](C)OC(=O)[C@]56CC[C@@H]43)C2)O[C@H](C)[C@H]1O[C@H]1C[C@H](OC)[C@H](O[C@@H]2C[C@@H](OC)[C@@H](O[C@@H]3O[C@H](CO)[C@@H](O)[C@H](O)[C@H]3O)[C@H](C)O2)[C@@H](C)O1 ; agent: Candida guilliermondii ; method: broth dilution / turbidity ; read-out: EC50 ; value: 100 µg/mL
C/C=C/Cc1ccc(OC)cc1 ; agent: Candida dubliniensis ; method: broth dilution ; read-out: MIC ; value: 1150 µg/mL

ECn: concentration that inhibits the pathogen or its effect by n%. Neighbouring rows are from separate reports. MIC50, MIC90 and the like: level of inhibition, or share of isolates inhibited.